One molecule from patent US20240209034A1 (priority 2021, published 2024) can be followed below.

The assay relates to A375P cells.

On to `CC(C)C[C@@H]1NC(=O)[C@H](CC(=O)O)NC(=O)CNC(=O)[C@H](CCCNC(=N)N)NC(=O)[C@H](CC(C)C)NC(=O)[C@H](CC(N)=O)NC(=O)[C@@H]2C[C@@H](O)CN2C(=O)[C@H](C(C)C)NC(=O)[C@@H](NC(=O)[C@H](CC(N)=O)NC(=O)CCCC[C@@H]2SC[C@@H]3NC(=O)N[C@@H]32)CSc2c(F)c(F)c(c(F)c2F)-c2c(F)c(F)c(c(F)c2F)SC[C@@H](C(=O)N[C@H](CCCNC(=N)N)C(=O)N[C@H](C(=O)N[C@@H](CCCCN)C(=O)N[C@H](C)C(N)=O)[C@@H](C)O)NC(=O)[C@H](C(C)C)NC(=O)[C@H](CCCCN)NC(=O)[C@H](CCC(N)=O)NC(=O)[C@H](C)NC(=O)[C@H](CC(C)C)NC(=O)[C@H](C(C)C)NC(=O)[C@H](CCC(N)=O)NC1=O` [C2C18 Ph RDTKAD DFBP], for which the “non-specific binding relative to the original A20FMDV2 peptide” value is 60±16%.
